Chains of the proteins cited; added tags and fusions are not shown.
UniProt P04036, whole entry: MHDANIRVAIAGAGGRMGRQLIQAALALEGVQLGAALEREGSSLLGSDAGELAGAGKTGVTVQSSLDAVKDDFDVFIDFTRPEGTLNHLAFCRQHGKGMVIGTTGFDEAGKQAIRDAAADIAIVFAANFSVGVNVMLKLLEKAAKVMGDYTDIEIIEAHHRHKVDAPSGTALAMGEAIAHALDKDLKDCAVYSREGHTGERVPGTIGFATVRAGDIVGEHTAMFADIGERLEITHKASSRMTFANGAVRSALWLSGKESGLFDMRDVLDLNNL

According to patent publication US20030180797A1, “Identification of ligands for a receptor family and related methods” (priority 2002, published 2003):

Molecular target: E. coli DHPR enzyme (Escherichia coli, UniProt P04036)
Test: Dihydrodipicolinate reductase (DHPR) kinetic spectrophotometric assay, NADPH oxidation at 340 nm
Details: read-out: IC50 for DHPR; common ligand mimics/variants, FIG. 9, 11, 13, 14

Row | SMILES | IC50 [µM]
1 | Cc1[nH]c(-c2ccc(-c3cccc(C(=O)O)c3)o2)nc1-c1ccccc1 | 45
2 | Cc1[nH]c(-c2ccc(-c3ccc(C(=O)O)cc3)o2)nc1-c1ccccc1 | > 100
3 | O=C(O)c1ccc(-c2ccc(-c3nc4ccccc4[nH]3)o2)cc1 | 32
